Measurements taken from patent US20260382619A1.

Tests used:
[1] = system: swine kidney cells (PK15 cell line); assay: cytotoxicity (CSFV example); conditions: read-out: cytotoxicity CC50; CSFV example (Table 2)
[2] = system: swine alveolar macrophages (PAM cell line); assay: cytotoxicity (ASFV example); conditions: read-out: cytotoxicity CC50; ASFV example (Table 1)
[3] = system: hamster kidney cells (BHK-21 cell line); assay: cytotoxicity (FMDV example); conditions: read-out: cytotoxicity CC50; FMDV example (Table 10)
[4] = system: Feline Infectious Peritonitis Virus (FIPV); assay: FIPV infection inhibition in FCWF-4 cells (realtime RT-qPCR)

## O=c1[nH]cnc2c1ncn2[C@@H](CO)OC(CO)CO
[1]
  CC50: > 10 mM
[2]
  CC50: > 10 mM
[3]
  CC50: > 10 mM

## O=c1[nH]c(=O)c2ncn([C@@H](CO)OC(CO)CO)c2[nH]1
[4]
  IC50: < 1.02 mM
[1]
  CC50: > 10 mM
[2]
  CC50: > 10 mM
[3]
  CC50: > 10 mM

## O=C[C@@H](CO)O[C@H](C=O)n1cnc2c(=O)[nH]c(=O)[nH]c21
[1]
  CC50: > 10 mM
[2]
  CC50: > 10 mM

## O=C[C@@H](CO)O[C@H](C=O)n1cnc2c(=O)[nH]cnc21
[1]
  CC50: > 10 mM
[2]
  CC50: > 10 mM
[3]
  CC50: > 10 mM

## Nc1nc2c(ncn2[C@@H](C=O)O[C@@H](C=O)CO)c(=O)[nH]1
[1]
  CC50: > 6 mM
[2]
  CC50: > 6 mM
[3]
  CC50: > 6 mM

## Nc1nc2c(ncn2[C@@H](CO)OC(CO)CO)c(=O)[nH]1
[1]
  CC50: > 10 mM
[2]
  CC50: > 10 mM
[3]
  CC50: > 10 mM
